{
  "source": "paper PMC8266576",
  "about": "“TnpAREP and REP sequences dissemination in bacterial genomes: REP recognition determinants”",
  "test_system": "TnpAREP Sm (TnpASm) (Stenotrophomonas maltophilia)",
  "experiment": "EMSA",
  "settings": "2 uM protein, no divalent metal, EMSA: 12.5 mM Tris pH 7.5, 120 mM NaCl, 1 mM DTT, 20 ug/ml BSA, 0.5 ug poly-dIdC, 7% glycerol, 0.02 uM labelled + 0.5 uM unlabelled oligonucleotide, recombinant protein, protein details: N-terminal Strep-tag, label: 5'-32P, folded or branched DNA",
  "note": "Construct, isoform or probe ends are uncertain for at least one entry.",
  "data": [
    {"sequence": "AGGTCCGGTAGTGCCGGCCGCTGGCCGGCAACCTCATTCAACTTCAGCAACCCAC [Sm3 (55nt) wt REPSm]", "values": [
      {"measurement": "binding result", "value": "binds"}
    ]}
  ]
}
